Pooled drug test results. Numbers come from NIAID ChemDB, via PubChem.

Common to all: host cell toxicity; measure: CC50

Blank or dashed fields: not listed here.

structure,cell line,method,setting,value
O=c1[nH]c(=O)n(C[C@@H](CO)OCP(=O)(O)O)cc1F,HB611,-,-,>200 µM
COc1cc(S(C)(=O)=O)ccc1C(=O)NC1N=C(c2ccccc2)c2ccccc2NC1=O,HEP-2,-,-,2.4 µM
CCCCOc1ccc(Nc2c[nH]c(=O)[nH]c2=O)cc1,A549 cells,MTT,-,>50 µg/mL
OC(c1cc(C(F)(F)F)nc2c(Cl)cc(Cl)cc12)C1CCCCN1,VERO,-,-,34.2 µg/mL
C#Cc1c(C(N)=O)ncn1[C@@H]1O[C@H](CO)[C@@H](O)[C@H]1O,LLC-MK2,MTT / neutral red,-,4.3 µg/mL
CC(C)OC(=O)NNC(=O)c1ccncc1,VERO,-,-,0.1 µg/mL
Nc1nc2c(ncn2CCOCP(=O)(O)O)c(=O)[nH]1,HSB-2,-,-,1.6 µM
Clc1ccc2c(c1)Nc1ccccc1S2,VERO,-,-,1.4 µg/mL
OC[C@@H]1CC[C@H](n2cnc3c(NC4CCCCCC4)nc(Cl)nc32)O1,MDBK,-,-,315 µM
O=C(COCC(=O)N/N=C/c1ccccc1[N+](=O)[O-])N/N=C/c1ccccc1[N+](=O)[O-],RAW 264.7,MTT,-,13.97 µM
CC(OCn1cnc2cnc(N)nc21)OCP(=O)(O)O,HB611,-,-,92 µM
O=C(NC1N=C(c2cccc(Cl)c2)c2ccccc2NC1=O)c1ccccc1[N+](=O)[O-],HEP-2,-,-,2.5 µM
Nc1nc2c(ncn2C[C@@H]2COP(=O)(O)CO2)c(=O)[nH]1,HSB-2,-,-,57 µM
COc1ccc2c(C)cc(N/N=C(/c3ccccc3)c3ccccn3)nc2c1,VERO,-,-,0.82 µg/mL
O=C(COCC(=O)N/N=C/c1ccccc1F)N/N=C/c1ccccc1F,RAW 264.7,MTT,-,36.34 µM
Cc1c2cc[n+]([O-])cc2c(C)c2c1oc1ccccc12,VERO,-,-,1.16 µg/mL
C/C(=N\OCc1ccc(F)cc1)c1c(C)cc(=O)n(O)c1O,PHH,MTS,3 d,>100 µM
NC1=NNC2(C(=O)N1)c1ccccc1-c1ccccc12,VERO,-,-,>10 µg/mL
Nc1cc(Cl)nc2c1ncn2[C@H]1C[C@H](O)[C@@H](CO)O1,Sheep chondrocytes G81092,-,-,>400 µM
COCC(Cn1cnc2c(N)ncnc21)OCP(=O)(O)O,HB611,-,-,64 µM
CC[C@@H](CO)NCCN[C@@H](CC)CO,THP-1 monocytes,-,-,350 µg/mL
Nc1nc2c(ncn2C[C@H]2COP(=O)(O)CO2)c(=O)[nH]1,HSB-2,-,-,153 µM
Nc1ncnc2c1ncn2CCP(=O)(O)O,HB611,-,-,>400 µM
COc1cc(C(F)(F)F)ccc1C(=O)N[C@H]1N=C(c2ccccc2)c2ccccc2NC1=O,HEP-2,-,-,2.7 µM
c1ccc2c(c1)nnn1c3cnccc3nc21,VERO,-,-,3 µg/mL
OC[C@H]1O[C@@H](n2cnc3c(NC4CC4)ncnc32)[C@H](O)[C@@H]1O,Sheep chondrocytes G81092,-,-,105 µM
O=Nc1c(-c2ccccc2)nc2ccccn12,VERO,-,-,3.5 µg/mL
Cc1cccc(Nc2c[nH]c(=O)[nH]c2=O)c1,A549 cells,MTT,-,>50 µg/mL
Nc1ccn([C@@H]2CC[C@H](CO)O2)c(=O)n1,CFU-GM,-,-,13 µM
Nc1nc(Cl)nc2c1ncn2[C@@H]1O[C@H](CO)[C@@H](O)[C@H]1O,Sheep chondrocytes G81092,-,-,<50 µM
S=C(S)NCCCNC(=S)S,VERO,-,-,0.35 µg/mL
O=c1[nH]c(=O)n(C2C=CC(O)C2)cc1Nc1ccc(Oc2ccccc2)cc1,A549 cells,MTT,-,>50 µg/mL
O=C(COCC(=O)N/N=C/c1ccccc1O)N/N=C/c1ccccc1O,RAW 264.7,MTT,-,44.64 µM
Nc1ccc2nc3cc(Nc4ccccc4)c(=Nc4ccccc4)cc-3n(-c3ccccc3)c2c1,VERO,-,-,9.2 µg/mL
COc1ccc(/C=N/NC(=O)COCC(=O)N/N=C/c2ccc(OC)c(OC)c2C(=O)O)c(C(=O)O)c1OC,RAW 264.7,MTT,-,48.12 µM
Nc1ncnc2c1ncn2[C@@H]1O[C@H](CO)C[C@@H]1O,H4,-,-,40 µg/mL
CO[C@H]1/C=C/O[C@@]2(C)Oc3c(C)c(O)c4c(O)c(c(C5SCCS5)c(O)c4c3C2=O)NC(=O)/C(C)=C\C=C\[C@H](C)[C@@H]2OC(C)(C)O[C@H]([C@@H](C)[C@H](O)[C@@H]1C)[C@@H]2C,VERO,-,-,12.53 µg/mL
OC[C@@H]1CC[C@H](n2cnc3c(NC4CCCCCC4)ncnc32)O1,Sheep chondrocytes G81092,MTT,-,308 µM
CSC(=S)NN=C1CCCC1,VERO,-,-,12.98 µg/mL
Nc1ccnc2c1ncn2[C@@H]1O[C@H](CO)C[C@H]1O,Sheep chondrocytes G81092,-,-,>400 µM
Cc1cccc(/C=N/NC(=O)COCC(=O)N/N=C/c2cccc(C)c2)c1,RAW 264.7,MTT,-,44.08 µM
O=c1[nH]cnc2c1ncn2CCOCCP(=O)(O)O,HB611,-,-,>400 µM
Nc1nc(N)c2ncn(C[C@@H](CO)OCP(=O)(O)O)c2n1,HSB-2,-,-,404 µM
OC[C@H]1O[C@@H](n2cnc3c(NC4CCCC4)cc(Cl)nc32)[C@H](O)[C@@H]1O,Sheep chondrocytes G81092,-,-,260 µM
CCn1c2cc(C)c(C)cc2nc2cc3c(cc21)c(Cl)c(=O)c1ccccc13,VERO,-,-,>10 µg/mL
OC[C@@H]1C[C@@H](O)[C@H](n2cnc3c(NC4CCCCCC4)cc(Cl)nc32)O1,MDBK,-,-,191 µM
Nc1nc(=O)n([C@@H]2CC[C@H](CO)O2)cc1F,IM9,-,-,>100 µM
O=C(Nc1cccnc1)c1ccc(CSc2ccc(Cl)cc2)o1,VERO,-,-,12.8 µg/mL
Nc1ncnc2c1cnn2CCOCP(=O)(O)O,HB611,-,-,32 µM
O=[N+]([O-])c1ccc(N2CCOCC2)c2c1no[n+]2[O-],VERO,-,-,0.11 µg/mL
Cc1ccc(Nc2cn(C3C=CC(O)C3)c(=O)n(C3C=CC(O)C3)c2=O)cc1,A549 cells,MTT,-,>50 µg/mL
CCN(CCO)CCNc1ccc(CO)c2sc3cc(Cl)ccc3c(=O)c12,VERO,-,-,1.53 µg/mL
Cc1cn(CCOCP(=O)(O)O)c(=O)[nH]c1=O,HB611,-,-,>200 µM
CCN(CC)Cc1c(-c2ccccc2)oc(-c2ccccc2)c1CN(CC)CC,VERO,-,-,19.21 µg/mL
O=C(NC(=O)C1N=C(c2ccccc2)c2ccccc2NC1=O)c1ccc2c(c1)CCO2,VERO,-,-,2 µM
O=C1C2=C(c3ccccc31)C(c1ccc([N+](=O)[O-])cc1)NC(=S)N2,VERO,-,-,>10 µg/mL
Cc1ccccc1/C=N/NC(=O)COCC(=O)N/N=C/c1ccccc1C,RAW 264.7,MTT,-,43.85 µM
CCOC(=O)NC(C(=O)OCC)(N1CCN(c2cc3c(cc2F)c(=O)c(C(=O)O)cn3CC)CC1)C(F)(F)F,VERO,-,-,>62.5 µg/mL
Nc1ccn(C[C@@H](CO)OCP(=O)(O)O)c(=O)n1,U138-MG,-,-,130 µg/mL
Nc1ncnc2c1ncn2C[C@@H](CO)OCP(=O)(O)O,HSB-2,-,-,46 µM
CC(=O)OC1C2(CC3N4C(=O)C5(CO)SSC4(CC31O)C(=O)N5C)OC(C)C(C)(C)C2=O,VERO,-,-,0.48 µg/mL

7 of the rows above, restated:

| structure | cell line | method | setting | value |
|---|---|---|---|---|
| Nc1ccn(C[C@@H](CO)OCP(=O)(O)O)c(=O)n1 | U138-MG | - | - | 130 µg/mL |
| Nc1ncnc2c1cnn2CCOCP(=O)(O)O | HB611 | - | - | 32 µM |
| Cc1cn(CCOCP(=O)(O)O)c(=O)[nH]c1=O | HB611 | - | - | >200 µM |
| OC[C@H]1O[C@@H](n2cnc3c(NC4CC4)ncnc32)[C@H](O)[C@@H]1O | Sheep chondrocytes G81092 | - | - | 105 µM |
| COc1cc(C(F)(F)F)ccc1C(=O)N[C@H]1N=C(c2ccccc2)c2ccccc2NC1=O | HEP-2 | - | - | 2.7 µM |
| Cc1cccc(/C=N/NC(=O)COCC(=O)N/N=C/c2cccc(C)c2)c1 | RAW 264.7 | MTT | - | 44.08 µM |
| O=C(NC(=O)C1N=C(c2ccccc2)c2ccccc2NC1=O)c1ccc2c(c1)CCO2 | VERO | - | - | 2 µM |

Lines come from different laboratories, so protocols vary. CCn is the concentration with n% toxicity to the cells.